Measured values from article PMC6083042.
The exact form of at least one protein or probe is not confirmed.

Target: rArsR~P (phosphorylated ArsR response regulator) (Helicobacter pylori) (UniProt O24973)
Assay: EMSA
Conditions: acetyl phosphate-phosphorylated ArsR, 0.10-0.82 ug, recombinant protein, label: 32P 5' end label (T4 PNK), probe letters rebuilt from the primers and the genome

“CGCTAAGTAAAGCGCTTTTTAGAAAATTAAGGGGCGTGAAACGCCCTAACCGCTAAAGATGTGCAAGTTTTTGCTAGGGGGTTTTAAGGGTTTTGAGTGTCAAGTTTTTATTAACATAGCCTAATTAATGATAAATAAACTATAAAACAAACGCTCGTTGTTAAGATTTTGTTTCAATATGAAACACTAATCCCTTGTAAAAACTTTAAATTTCAAAAAACAAACAAACAACCCCCTTAAATTGTATAATTAAGACACTATAAACTAAAAAGAGATAACCTCTAGAGCGCG (double strand) [homB promoter]”: binds (shift even at low protein, competed by 2x unlabeled homB promoter).

“CAATTAACTCCTTCAATGATTTCTACAACTTTAAAAACGATTAACTCTGTTAATGTTTTAAGGGCTTGATTTTAGCATTTTATTACTAAAGATACCTTAAAGATGTCTTAAAAATAAAAATTCAAAACATTATCATAGTTATTAATAGAAATTTAAGGCTTTGTTTTCATGGAATATTGAAAATTAAAGCCTTATTTTTTAATGTTTTTAAACAATTCCTTTGATCGTTTT (double strand) [arsR promoter (positive control)]”: binds (shift only at higher protein, competed by 2x unlabeled arsR promoter).
